PubChem BioAssay AID624099 | ICCB-Longwood, 2012
Test: 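Human genes that papillomavirus E2 requires to repress the HPV18 LCR promoter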 (primary screen). Cell system: human C33A cervical carcinoma cells (HPV-negative) stably expressing BPV1 E2 and an HPV18 LCR luciferase reporter. Reagent: siRNA pool against human genes, 40 nM. Time to read-out: 72 h. Measured: 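Per-well luciferase luminescence, z-scored on each plate against the plate mean and SD with control wells left out, then averaged across three replicate plates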. Reading the numbers: mean z-score and z-score: higher = stronger reporter signal, weaker E2 silencing. Hit rule: 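Mean z ≥ 2 together with z ≥ 2 in two or more of the three replicates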.
In all, the deposit lists about 21,000 reagents; shown is an unselected part. 497 of them (2.4%) count as active. 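Higher z means weaker E2 silencing; only reporter increases were scored, and knock-downs that hurt cell survival may mask genuine repressor factors.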 The numbers tell different reagents against one gene apart.

For TOX2 the deposit lists mean z-score -1.25; z-score, replicate A = -1.48; z-score, replicate B = -1.02; z-score, replicate C = -1.24; inactive.
For DRC11, the values are mean z-score -0.08; z-score, replicate A = 0.23; z-score, replicate B = -0.08; z-score, replicate C = -0.38; inactive.
Against KLK10, the values are mean z-score 0.52; z-score, replicate A = 0.78; z-score, replicate B = 0.44; z-score, replicate C = 0.33; inactive.
Silencing of DNAAF10 came out at: mean z-score -0.04; z-score, replicate A = -0.09; z-score, replicate B = -0.26; z-score, replicate C = 0.23; inactive.
With knock-down of IFNA5, the screen gave mean z-score -0.68; z-score, replicate A = -0.63; z-score, replicate B = -0.68; z-score, replicate C = -0.74; inactive.
Knock-down of PTPRN2 resulted in: mean z-score -0.79; z-score, replicate A = -0.83; z-score, replicate B = -0.79; z-score, replicate C = -0.75; inactive.
For GAL3ST3 the deposit lists mean z-score -1.03; z-score, replicate A = -0.93; z-score, replicate B = -1.17; z-score, replicate C = -0.99; inactive.
Against LOC389752 (retired record) the deposit lists mean z-score -1.24; z-score, replicate A = -1.67; z-score, replicate B = -0.83; z-score, replicate C = -1.21; inactive.
For ZFHX3 #1 the deposit lists mean z-score 0.32; z-score, replicate A = 0.1; z-score, replicate B = 0.24; z-score, replicate C = 0.61; inactive.
After knock-down of ZFHX3 #2, the screen gave mean z-score 0.8; z-score, replicate A = 0.77; z-score, replicate B = 0.7; z-score, replicate C = 0.94; inactive.
Against ZNF414 the deposit lists mean z-score 1.52; z-score, replicate A = 1.4; z-score, replicate B = 1.62; z-score, replicate C = 1.54; inactive.
With knock-down of INO80B, the record shows mean z-score -0.54; z-score, replicate A = -0.64; z-score, replicate B = -0.4; z-score, replicate C = -0.58; inactive.

Already shown: 4 of the entries above.
DRC11 — mean z-score = -0.08; z-score, replicate A = 0.23; z-score, replicate B = -0.08; z-score, replicate C = -0.38; Outcome = inactive
KLK10 — mean z-score = 0.52; z-score, replicate A = 0.78; z-score, replicate B = 0.44; z-score, replicate C = 0.33; Outcome = inactive
DNAAF10 — mean z-score = -0.04; z-score, replicate A = -0.09; z-score, replicate B = -0.26; z-score, replicate C = 0.23; Outcome = inactive
IFNA5 — mean z-score = -0.68; z-score, replicate A = -0.63; z-score, replicate B = -0.68; z-score, replicate C = -0.74; Outcome = inactive

Continued.
Depletion of CLDN19 resulted in: mean z-score -0.45; z-score, replicate A = -0.74; z-score, replicate B = -0.51; z-score, replicate C = -0.09; inactive.
Depletion of HAGHL gave: mean z-score -0.6; z-score, replicate A = -0.63; z-score, replicate B = -0.68; z-score, replicate C = -0.5; inactive.
Against LIMD1 the deposit lists mean z-score 0.4; z-score, replicate A = 0.75; z-score, replicate B = -0.06; z-score, replicate C = 0.52; inactive.
Depletion of ZNF609 came out at: mean z-score 0.01; z-score, replicate A = -0.27; z-score, replicate B = -0.16; z-score, replicate C = 0.45; inactive.
With knock-down of MRAP2 the results were mean z-score 0.62; z-score, replicate A = 0.37; z-score, replicate B = 0.71; z-score, replicate C = 0.77; inactive.
With knock-down of MYBL2, the screen gave mean z-score -0.29; z-score, replicate A = -0.2; z-score, replicate B = -0.18; z-score, replicate C = -0.49; inactive.
Depletion of LOC389050 (retired record) gave: mean z-score 1; z-score, replicate A = 0.81; z-score, replicate B = 1.14; z-score, replicate C = 1.04; inactive.
ENC1 showed mean z-score 0.23; z-score, replicate A = 0.42; z-score, replicate B = 0.31; z-score, replicate C = -0.04; inactive.
Silencing of IL17RB gave: mean z-score -0.14; z-score, replicate A = -0.35; z-score, replicate B = 0.06; z-score, replicate C = -0.12; inactive.
With knock-down of GNL2 the results were mean z-score -1.52; z-score, replicate A = -1.14; z-score, replicate B = -1.58; z-score, replicate C = -1.85; inactive.
YTHDC1 gave mean z-score 1.41; z-score, replicate A = 1.53; z-score, replicate B = 1.17; z-score, replicate C = 1.54; inactive.
With knock-down of RHBDL1, the screen gave mean z-score -0.8; z-score, replicate A = -0.63; z-score, replicate B = -0.78; z-score, replicate C = -1; inactive.
Against FAM13A #1 the deposit lists mean z-score -1.01; z-score, replicate A = -1.12; z-score, replicate B = -1.06; z-score, replicate C = -0.84; inactive.
Against FAM13A #2, the entry reads mean z-score 1.3; z-score, replicate A = 1.54; z-score, replicate B = 0.72; z-score, replicate C = 1.65; inactive.
LOC390760 (retired record) scored mean z-score -0.19; z-score, replicate A = -0.12; z-score, replicate B = -0.06; z-score, replicate C = -0.4; inactive.
